In experiment [1] the test system is LdtR mutant N65A. As to conditions: benzbromarone:LdtR molar ratio, protein at around 50% DNA binding.
For experiment [2], the system named is LdtR mutant V26A. As to conditions: 1.5:1 ratio.
In experiment [3] the test system is LdtR mutant R37A. As to conditions: benzbromarone:LdtR molar ratio, protein at around 50% DNA binding.
Experiment [4] relates to LdtR mutant Y81A. As to conditions: high ligand:protein molar ratios.
In experiment [5] the test system is LdtR mutant V26A. The settings on record: benzbromarone:LdtR molar ratio, protein at around 50% DNA binding.
In experiment [6] the test system is LdtR mutant Y81A. As to conditions: benzbromarone:LdtR molar ratio, protein at around 50% DNA binding.
The test system of experiment [7] is LdtR mutant R30A. As to conditions: benzbromarone:LdtR molar ratio, protein at around 50% DNA binding.
Experiment [8] concerns LdtR mutant Y131A. The settings on record: benzbromarone:LdtR molar ratio, protein at around 50% DNA binding.
The test system of experiment [9] is LdtR mutant Y131A. The settings on record: 1.5:1 ratio.
In experiment [10] the test system is LdtR mutant N65A. The settings on record: high ligand:protein molar ratios.

With `CCc1oc2ccccc2c1C(=O)c1cc(Br)c(O)c(Br)c1` [benzbromarone], the “excess of benzbromarone required to disrupt the LdtR:DNA complex” value in experiment [1] and in experiment [5] was 20 fold excess in each case. Moreover, the “change in melting temperature (ΔTm)” value in experiment [2] is -5.3 ± 0.4 °C; in experiment [4] it was -3.1 ± 0.4 °C; in [9], -5.9 ± 0.3 °C; in experiment [10], -3.3 ± 0.4 °C. Besides, the “excess of benzbromarone at which the LdtR:DNA complex is disrupted” value in experiment [3], in experiment [6], in [7] and in experiment [8] was 10 fold excess in each case.

Source of the values: PMC4658428 (Frontiers in Microbiology, 2015).
